# Results deposited as PubChem BioAssay AID1224833 (University of Georgia, 2016)
# Purpose: 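Host factors restraining rotavirus as candidate antiviral genes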 (primary screen)
# Cells: monkey MA104 kidney cells
# Reagent: siRNA pool against human genes, 50 nM
# Duration: 48 h knock-down before infection; read 24 h after infection
# Conditions: infection with rotavirus strain RV3 two days after transfection; infectious dose for this stage not given
# Read-out: 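Rotavirus antigen per well by fluorescent immunoassay, normalised to non-targeting control wells on each plate and given as a standard z-score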
# Direction: z-score vs non-targeting control: higher = more rotavirus replication than with non-targeting control
# Hit rule: In these data the active calls have z-score vs non-targeting control at about -1 or lower, or at about 1 or higher
# Meaning of the calls: active = z-score beyond 1 either way; inactive = z-score within 1 of zero
# Here is one part, drawn at random, of about 12,000 reagents tested. About 5,600 of them (46%) were called active. 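Active calls cover z-scores past 1 in both directions, so they include lowered as well as raised rotavirus replication.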 Unmarked entries are inactive.
gene,PubChem SID,z-score vs non-targeting control
PLEKHA6 (pleckstrin homology domain containing A6),SID329577695,-0.662
SERPING1 (serpin family G member 1),SID329572952,0.342
OR2A42 (olfactory receptor family 2 subfamily A member 42),SID329584511,-1.69 (active)
SFPQ (splicing factor proline and glutamine rich),SID329575298,-0.811
CASQ2 (calsequestrin 2),SID329573017,-0.156
GNB2 (G protein subunit beta 2),SID329573797,1.48 (active)
SPACDR (sperm acrosome developmental regulator),SID329584514,-2.2 (active)
"TOE1 (target of EGR1, exonuclease)",SID329582197,0.771
ARHGAP12 (Rho GTPase activating protein 12),SID329582144,-1.3 (active)
DLX5 (distal-less homeobox 5),SID329573412,-0.819
ADRA2A (adrenoceptor alpha 2A),SID329572709,-1.09 (active)
IGF2 (insulin like growth factor 2),SID329574114,-2.24 (active)
CFAP69 (cilia and flagella associated protein 69),SID329581038,-0.523
TNS1 (tensin 1),SID329575691,1.09 (active)
SH3BP2 (SH3 domain binding protein 2),SID329575316,2.12 (active)
SOX21 (SRY-box transcription factor 21),SID329577575,0.655
TPM1 (tropomyosin 1),SID329575702,-1.81 (active)
LEFTY2 (left-right determination factor 2),SID329575627,-1.26 (active)
OR1I1 (olfactory receptor family 1 subfamily I member 1),SID329582547,-0.526
"GIMAP6 (GTPase, IMAP family member 6)",SID329584631,-0.403
CNBD1 (cyclic nucleotide binding domain containing 1),SID329583300,0.677
NUP188 (nucleoporin 188),SID329578026,-1.18 (active)
MSR1 (macrophage scavenger receptor 1),SID329574491,-1.57 (active)
GNPTAB,SID329580852,2.47 (active)
CEACAM6 (CEA cell adhesion molecule 6),SID329574552,-1.52 (active)
OR4F3 (olfactory receptor family 4 subfamily F member 3),SID329578432,-0.306
ENAH (ENAH actin regulator),SID329579842,-0.444
GPT2 (glutamic--pyruvic transaminase 2),SID329581711,-0.737
PIGA (phosphatidylinositol glycan anchor biosynthesis class A),SID329574830,-0.944
LZIC (leucine zipper and CTNNBIP1 domain containing),SID329581607,-0.5
CNMD (chondromodulin),SID329577510,-0.455
PGLYRP2 (peptidoglycan recognition protein 2),SID329582214,-1.46 (active)
H2AZ1 (H2A.Z variant histone 1),SID329573918,1.41 (active)
LEF1 (lymphoid enhancer binding factor 1),SID329578951,-2.4 (active)
YIPF5 (Yip1 domain family member 5),SID329581314,-1.73 (active)
SLC22A12,SID329582288,-2.21 (active)
COL11A2 (collagen type XI alpha 2 chain),SID329573216,-0.392
NSG2 (neuronal vesicle trafficking associated 2),SID329579148,-0.42
"RAVER1 (ribonucleoprotein, PTB binding 1)",SID329582517,0.21
AHSG (alpha 2-HS glycoprotein),SID329572731,-0.71
SPRY4 (sprouty RTK signaling antagonist 4),SID329581362,0.647
VENTX (VENT homeobox),SID329578557,-1.77 (active)
SHOC1 (shortage in chiasmata 1),SID329583151,0.0668
MYBPH (myosin binding protein H),SID329574518,0.368
SLC38A6,SID329582886,-1.95 (active)
PRRX1 (paired related homeobox 1),SID329574884,-2.2 (active)
PGD (phosphogluconate dehydrogenase),SID329574813,-2.43 (active)
GPRASP2 (G protein-coupled receptor associated sorting protein 2),SID329582250,-1.32 (active)
RNF148 (ring finger protein 148),SID329584273,0.565
LYPLA1 (lysophospholipase 1),SID329577153,-1.72 (active)
ZBTB24 (zinc finger and BTB domain containing 24),SID329576827,-1.13 (active)
GJB5 (gap junction protein beta 5),SID329573772,-2 (active)
ZBTB46 (zinc finger and BTB domain containing 46),SID329582802,-0.361
ACTR10 (actin related protein 10),SID329579911,1.19 (active)
GCKR (glucokinase regulator),SID329573739,-3.16 (active)
SEMA3B (semaphorin 3B),SID329575961,0.408
IL1B (interleukin 1 beta),SID329574129,-2.05 (active)
UNC13A (unc-13 homolog A),SID329577768,0.958
ISLR (immunoglobulin superfamily containing leucine rich repeat),SID329574185,0.332
MRPL4 (mitochondrial ribosomal protein L4),SID329578886,-0.93
CROT (carnitine O-octanoyltransferase),SID329579359,-0.586
MAP7D2 (MAP7 domain containing 2),SID329583753,2.25 (active)
PRDM10 (PR/SET domain 10),SID329580119,-0.151
GPER1 (G protein-coupled estrogen receptor 1),SID329573841,0.951
ZMYM6 (zinc finger MYM-type containing 6),SID329576476,-0.678
EXOSC4 (exosome component 4),SID329579304,-0.994
CNTNAP3 (contactin associated protein family member 3),SID329581085,1.69 (active)
GPD1L (glycerol-3-phosphate dehydrogenase 1 like),SID329577848,-1.11 (active)
API5 (apoptosis inhibitor 5),SID329576165,-0.701
ZNF646 (zinc finger protein 646),SID329576754,0.627
ZNF211 (zinc finger protein 211),SID329577210,0.146
SRGAP1 (SLIT-ROBO Rho GTPase activating protein 1),SID329580268,3.8 (active)
OR2A1 (olfactory receptor family 2 subfamily A member 1),SID329584149,0.376

The list goes on; the last 2 above are carried over.
gene,PubChem SID,z-score vs non-targeting control
SRGAP1 (SLIT-ROBO Rho GTPase activating protein 1),SID329580268,3.8 (active)
OR2A1 (olfactory receptor family 2 subfamily A member 1),SID329584149,0.376
NUDT22 (nudix hydrolase 22),SID329581589,-2.35 (active)
OTUD7A (OTU deubiquitinase 7A),SID329583204,0.01
RAD52 (RAD52 DNA repair protein),SID329575062,-0.639
MAT1A (methionine adenosyltransferase 1A),SID329574393,-1.04 (active)
PARD3B (par-3 family cell polarity regulator beta),SID329582355,1.37 (active)
PLCL1 (phospholipase C like 1 (inactive)),SID329574856,-1.95 (active)
CELF4 (CUGBP Elav-like family member 4),SID329580064,-1.21 (active)
"HLA-DOB (major histocompatibility complex, class II, DO beta)",SID329573966,0.784
EEF1AKMT1 (EEF1A lysine methyltransferase 1),SID329583573,1.23 (active)
RAET1E (retinoic acid early transcript 1E),SID329582725,-1.45 (active)
WFIKKN2,SID329582501,-2.07 (active)
C3orf62 (chromosome 3 open reading frame 62),SID329584253,1.01 (active)
PRND (prion like protein doppel),SID329578097,-2.17 (active)
CSF2RB (colony stimulating factor 2 receptor subunit beta),SID329573281,1.42 (active)
CCDC92 (coiled-coil domain containing 92),SID329581176,1.38 (active)
TBL1Y (transducin beta like 1 Y-linked),SID329581966,-1.51 (active)
IL18BP (interleukin 18 binding protein),SID329576945,0.424
ATE1 (arginyltransferase 1),SID329577536,1.76 (active)
SIN3B (SIN3 transcription regulator family member B),SID329577932,0.18
FFAR1 (free fatty acid receptor 1),SID329573846,-1.47 (active)
OSCP1,SID329582581,-0.906
HSPA12B (heat shock protein family A (Hsp70) member 12B),SID329582325,0.611
FAM151B (family with sequence similarity 151 member B),SID329583284,-0.49
SLC35D3,SID329584066,-0.29
KLK11 (kallikrein related peptidase 11),SID329577481,1.13 (active)
CMTM7 (CKLF like MARVEL transmembrane domain containing 7),SID329582163,-0.186
KRT18 (keratin 18),SID329574250,2.09 (active)
TTC29 (tetratricopeptide repeat domain 29),SID329581476,-0.68
COL1A2 (collagen type I alpha 2 chain),SID329573195,0.668
AGER (advanced glycosylation end-product specific receptor),SID329572723,0.552
SMTNL2 (smoothelin like 2),SID329584104,0.922
ZNF692 (zinc finger protein 692),SID329579793,-1.12 (active)
ZNF557 (zinc finger protein 557),SID329580869,0.635
GUCA1B (guanylate cyclase activator 1B),SID329573898,-1.33 (active)
CLOCK (clock circadian regulator),SID329576667,-0.578
CDIN1 (CDAN1 interacting nuclease 1),SID329581648,-0.483
DNAJC2 (DnaJ heat shock protein family (Hsp40) member C2),SID329578458,-0.636
